## PSTVd loop 6 mutant pool in Nicotiana benthamiana

Values reported by Wu et al. 2024 (doi:10.1371/journal.ppat.1012142).

Region: loop 6 of PSTVd (intermediate strain), upper and lower strand joined, each 5' to 3', the first 5 letters being the upper strand, closing pairs included. Wild type: UGACCGCGAG. Varied positions (N): UNNNCGNNNG.

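Three N. benthamiana plants were inoculated with the whole mutant pool. Samples came from the inoculated region at 5 days, the leaf margin at 10 and upper systemic leaves at 12.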

Numbers give reads per thousand; 0 = not seen among the reads, higher = more abundant.
Each value is the mean of three plants.
"Pool" is the share in the plasmid pool used as inoculum, on the same scale.
The inoculated region was read from the minus strand, the other sites from the plus strand.
Sequences that differ at fixed positions probably stem from PCR or sequencing errors, and defective variants can be carried along by functional ones.
Samples held 36,220 to 57,551 reads, so the smallest values rest on one or two reads.
Wild type was 20.7 per thousand in the pool and the most common sequence in every sample (inoculated region 195, 198, 203; leaf margin 629, 591, 734; systemic leaves 942, 870, 868).

- UCGGCGCCUG (pool 0.327) -> inoculated region 0.102; leaf margin 0.0330; systemic leaves 0
- UGAUCGUCCG (pool 0.105) -> inoculated region 0.119; leaf margin 0.0169; systemic leaves 0
- UUGGCGGGGG (pool 0.288) -> inoculated region 0.0599; leaf margin 0; systemic leaves 0
- UAUGCGGCUG (pool 0.131) -> inoculated region 0.119; leaf margin 0; systemic leaves 0
- UCGACGAAAG (pool 0.196) -> inoculated region 0.0891; leaf margin 0; systemic leaves 0
- UUCGCGAAAG (pool 0.222) -> inoculated region 0.137; leaf margin 0.00920; systemic leaves 0
- UAGGCGCCCG (pool 0.418) -> inoculated region 0.0413; leaf margin 0.00773; systemic leaves 0.00673
- UUUUCGCCGG (pool 0.248) -> inoculated region 0.0824; leaf margin 0; systemic leaves 0
- UUAGCGCAUG (pool 0.288) -> inoculated region 0.101; leaf margin 0.00773; systemic leaves 0
- UUAGCAGCGG (pool 0.0131) -> inoculated region 0; leaf margin 0; systemic leaves 0
- UGGCCGGACG (pool 0.275) -> inoculated region 0.114; leaf margin 0.00920; systemic leaves 0
- UUACCGAUUG (pool 0.261) -> inoculated region 0.199; leaf margin 0; systemic leaves 0
- UGUUCGCAAG (pool 0.157) -> inoculated region 0.157; leaf margin 0.0431; systemic leaves 0
- UGACCGGAAG (pool 0.0131) -> inoculated region 0.0891; leaf margin 0.175; systemic leaves 0.00684
- UCGUCGUAAG (pool 0.105) -> inoculated region 0.0775; leaf margin 0.0169; systemic leaves 0
- UCUCCGGGGG (pool 0.0915) -> inoculated region 0.0889; leaf margin 0.00920; systemic leaves 0
- UGGCCGUACG (pool 0.275) -> inoculated region 0.174; leaf margin 0.0184; systemic leaves 0
- UCGGCGGAAG (pool 0.144) -> inoculated region 0.0656; leaf margin 0; systemic leaves 0
- UUAGCGUCUG (pool 0.288) -> inoculated region 0.0706; leaf margin 0; systemic leaves 0
- UUCGCUUAUG (pool 0.0131) -> inoculated region 0; leaf margin 0; systemic leaves 0
- UUUUCGCGUG (pool 0.196) -> inoculated region 0.106; leaf margin 0.00920; systemic leaves 0
- UAGUCGGGUG (pool 0.353) -> inoculated region 0.156; leaf margin 0; systemic leaves 0
- UCCACGAAGG (pool 0.0784) -> inoculated region 0.0773; leaf margin 0.00920; systemic leaves 0
- UCUACGAGGG (pool 0.235) -> inoculated region 0.100; leaf margin 0.00920; systemic leaves 0
- UCUACGCUGG (pool 0.118) -> inoculated region 0.0950; leaf margin 0.00773; systemic leaves 0

The first 2 entries again:

{"sequence": "UCGGCGCCUG", "pool": "0.327", "inoculated region": 0.102, "leaf margin": 0.0330, "systemic leaves": 0}
{"sequence": "UGAUCGUCCG", "pool": "0.105", "inoculated region": 0.119, "leaf margin": 0.0169, "systemic leaves": 0}